Measured values reported in PMC5704290.

Test system: CC(C)(CO)[C@@H](O)C(=O)O
Assay: purified protein
Conditions: pH 7.8; 25.0 °C

## (Mycobacterium tuberculosis H37Rv)
  Km: 1300 ± 100 µM
